Results of unrelated studies side by side (data: NIAID ChemDB).

Common to all: whole-cell or culture tests; organism: HIV-1; method: luciferase; endpoint: EC50

Conditions beyond the fields shown may differ between rows.

{"SMILES": "CN(C(=O)[C@H](Cc1cc(F)cc(F)c1)NC(=O)c1cccc(C(=O)N[C@@H](Cc2cc(F)cc(F)c2)C(=O)N(C)c2ccc3scnc3c2)c1Cl)c1ccc2scnc2c1", "strain": "NL4-3", "cell line": "MT-2", "result": "0.07 µM"}
{"SMILES": "O=C(C(=O)N1CCN(C(=O)c2cc(Br)ccc2S)CC1)c1c[nH]c2cccc(F)c12", "cell line": "HeLa + HELA CD4+/CCR5", "result": "<10 µM"}
{"SMILES": "COc1ccc(N(C)C(=O)[C@H](Cc2ccccc2)NC(=O)NS(=O)(=O)N[C@@H](Cc2ccccc2)C(=O)N(C)c2cc(OC)c(OC)c(OC)c2)cc1", "strain": "NL4-3", "cell line": "MT-2", "result": "12.25 µM"}
{"SMILES": "O=C(C(=O)N1CCN(C(=NC2CCCCC2)c2ccccc2)CC1)c1c[nH]c2c(-n3ccnn3)ncc(F)c12", "strain": "Luciferase reporter virus", "cell line": "HeLa(CD4+) + HeLa", "result": "<0.5 µM"}
{"SMILES": "Nc1ccn([C@@H]2CS[C@H](CO)O2)c(=O)n1", "strain": "NL4-3", "mutations": "WT", "cell line": "TZM-bl", "result": "0.00095 µM"}
{"SMILES": "COc1cnc(-n2cnc(C)n2)c2[nH]cc(C(=O)C(=O)N3CCN(C(=NC#N)c4ccccn4)CC3)c12", "strain": "Luciferase reporter virus", "cell line": "HeLa(CD4+) + HeLa", "result": "<0.5 µM"}
{"SMILES": "Cc1cc(C#N)cc(C)c1Oc1nc(Nc2ccc(C#N)cc2)nc2ccsc12", "strain": "Y-188L", "cell line": "HeLa", "result": ">0.1 µM"}
{"SMILES": "CNCc1nnc(SCC(=O)Nc2ccc(C)cc2Br)n1-c1ccc(C)cc1", "strain": "NL4-3", "mutations": "RT-K103N Y181C", "cell line": "HeLa + HeLa-JC53", "result": ">10 µM"}
{"SMILES": "COc1ccc(N(C)C(=O)[C@H](Cc2ccccc2)NC(=O)NS(=O)(=O)N[C@@H](Cc2ccccc2)C(=O)N(C)c2ccc(OC)cc2C)cc1", "strain": "NL4-3", "cell line": "MT-2", "result": "1.72 µM"}
{"SMILES": "O=C1Nc2ccc(Cl)cc2[C@@](C#CC2CC2)(C(F)(F)F)O1", "strain": "94ug114.1.6", "cell line": "HEK293T", "result": "5.73 nM"}
{"SMILES": "COc1ccc(-n2ccnc2[C@H](Cc2ccccc2)NC(=O)c2cccc(C(=O)N[C@@H](Cc3ccccc3)c3nccn3-c3ccc(OC)cc3)c2)cc1", "strain": "NL4-3", "cell line": "MT-2", "result": "2.8 µM"}
{"SMILES": "Cc1cc(C#N)cc(C)c1Oc1nc(Nc2ccc(C#N)cc2)nc2sccc12", "cell line": "HeLa", "result": "<0.1 µM"}
{"SMILES": "Cc1cc2cccc(C)c2c(-n2c(C)nnc2SCC(=O)Nc2ccccc2Br)c1C", "strain": "NL4-3", "mutations": "RT-Y188L", "cell line": "HeLa + HeLa-JC53", "result": "0.2 µM"}
{"SMILES": "COc1ccnc2[nH]cc(C(=O)C(=O)N3C4CCC3CN(C(=O)c3ccccc3)C4)c12", "strain": "AC10", "cell line": "TZM-bl", "result": "1.1 µM"}
{"SMILES": "Cc1cc(S(N)(=O)=O)ccc1NC(=O)COc1ccc(Cl)cc1C(=O)c1cc(F)cc(C(F)(F)F)c1", "strain": "IIIB", "mutations": "RT-K101E", "cell line": "HELA MAGI", "result": "0.0034 µM"}
{"SMILES": "CCc1ncc(N(C)C(=O)[C@H](Cc2cc(F)cc(F)c2)NC(=O)CN2c3ccccc3N(CC(=O)N[C@@H](Cc3cc(F)cc(F)c3)C(=O)N(C)c3cnc(CC)nc3)S2(=O)=O)cn1", "strain": "NL4-3", "cell line": "MT-2", "result": "0.18 µM"}
{"SMILES": "COc1ccnc2[nH]cc(C(=O)C(=O)N3CCN(C(=O)c4ccccc4)C[C@H]3C)c12", "strain": "6535", "cell line": "TZM-bl", "result": "<0.002 µM"}
{"SMILES": "CCOC(=O)c1ccc(-c2ncc(OC)c3c(C(=O)C(=O)N4CCC(=C(C#N)c5ccccc5)CC4)c[nH]c23)cc1", "cell line": "HeLa", "result": "<1 µM"}
{"SMILES": "Cc1ccc(-n2c(SCC(=O)Nc3ccc(C)cc3Br)nnc2C(F)(F)F)cc1", "strain": "NL4-3", "mutations": "RT-K103N Y181C", "cell line": "HeLa + HeLa-JC53", "result": "1.1 µM"}
{"SMILES": "COc1ccc(N(C)C(=O)[C@H](Cc2ccccc2)Nc2ncnc(N[C@@H](Cc3ccccc3)C(=O)N(C)c3ccc(OC)cc3)n2)cc1", "strain": "NL4-3", "cell line": "MT-2", "result": "6.87 µM"}
{"SMILES": "O=C(C(=O)N1CCN(C(=O)c2occ(Cl)c2Cl)CC1)c1c[nH]c2c(F)ccc(F)c12", "cell line": "HeLa + HELA CD4+/CCR5", "result": "<10 µM"}
{"SMILES": "Cc1cc(C)c(Nc2nc(Nc3ccc(C#N)cc3)nc3c(C)csc23)c(C)c1", "strain": "Y-188L", "cell line": "HeLa", "result": "<0.01 µM"}
{"SMILES": "O=C(C(=O)N1CCN(C(=O)c2ccc(Br)o2)CC1)c1c[nH]c2c(F)ccc(F)c12", "cell line": "HeLa + HELA CD4+/CCR5", "result": "<10 µM"}
{"SMILES": "COc1cnc(-n2ccc(C)n2)c2[nH]cc(C(=O)C(=O)N3CCC(=C(c4ccccc4)c4csc(C)n4)CC3)c12", "cell line": "HeLa", "result": "<1 µM"}
{"SMILES": "CSc1ccc(C(=O)N2CCN(C(=O)C(=O)c3c[nH]c4cccc(Cl)c34)CC2)c(S)c1", "cell line": "HeLa + HELA CD4+/CCR5", "result": "<10 µM"}
{"SMILES": "Cc1cc(C)c(Oc2nc(Nc3ccc(C#N)cc3)nc3c(C)csc23)c(C)c1", "strain": "L1001-K103N", "cell line": "HeLa", "result": "0.01–0.1 µM"}
{"SMILES": "COc1cnc(-n2ccc(-c3ccc(C#N)cc3)n2)c2[nH]cc(C(=O)C(=O)N3CCN(C(=NC#N)c4ccccc4)CC3)c12", "strain": "Luciferase reporter virus", "cell line": "HeLa(CD4+) + HeLa", "result": "<0.5 µM"}
{"SMILES": "Cc1cc2c(C)ccc(-n3c(C)nnc3SCC(=O)Nc3ccccc3Br)c2cc1C", "strain": "NL4-3", "mutations": "RT-Y188L", "cell line": "HeLa + HeLa-JC53", "result": "0.11 µM"}
{"SMILES": "CCN=C(c1ccccc1)N1CCN(C(=O)C(=O)c2c[nH]c3c(-n4ccnn4)ncc(F)c23)CC1", "strain": "Luciferase reporter virus", "cell line": "HeLa(CD4+) + HeLa", "result": "<0.5 µM"}
{"SMILES": "Cc1ccc(-n2c(C)nnc2SCC(=O)Nc2ccccc2-c2ccccc2)cc1", "strain": "NL4-3", "cell line": "HeLa + HeLa-JC53", "result": ">10 µM"}
{"SMILES": "C=CCN(C(=O)[C@H](Cc1cc(F)cc(F)c1)NC(=O)CCC(=O)N[C@@H](Cc1cc(F)cc(F)c1)C(=O)N(CC=C)c1ccc(OC)cc1)c1ccc(OC)cc1", "strain": "NL4-3", "cell line": "MT-2", "result": "7.66 µM"}
{"SMILES": "CC[C@]1(CO)O[C@@H](n2cnc3c(N)ncnc32)C[C@@H]1O", "mutations": "(delta)Env", "cell line": "TZM-bl", "result": "0.184 µM"}
{"SMILES": "COc1ncc(OC)c2c(C(=O)C(=O)N3CCC(=C(C#N)c4nnc(-c5ccccc5)o4)CC3)c[nH]c12", "cell line": "HeLa", "result": ">5 µM"}
{"SMILES": "CC1CN(C(=O)c2ccccc2)C(C)CN1C(=O)C(=O)c1c[nH]c2cccc(F)c12", "cell line": "HeLa + HELA CD4+/CCR5", "result": "<10 µM"}
{"SMILES": "Cc1cc(-n2c(C)nnc2SCC(=O)Nc2ccccc2Br)c2ccccc2c1C", "strain": "NL4-3", "mutations": "RT-Y188L", "cell line": "HeLa + HeLa-JC53", "result": "0.097 µM"}
{"SMILES": "CN(C(=O)[C@H](Cc1cc(F)cc(F)c1)NC(=O)NS(=O)(=O)N[C@@H](Cc1cc(F)cc(F)c1)C(=O)N(C)c1ccc(C(F)F)nc1)c1ccc(C(F)F)nc1", "strain": "NL4-3", "cell line": "MT-2", "result": "0.39 µM"}
{"SMILES": "Cc1cc(C)c2ccccc2c1-n1c(C)nnc1SCC(=O)Nc1ccccc1Br", "strain": "NL4-3", "mutations": "RT-K103N Y181C", "cell line": "HeLa + HeLa-JC53", "result": "0.07 µM"}
{"SMILES": "COc1ccc(N(C)C(=O)[C@H](Cc2ccccc2)NC(=O)Cn2c(=O)n(CC(=O)N[C@@H](Cc3ccccc3)C(=O)N(C)c3ccc(OC)cc3)c3cc(NC(C)=O)ccc32)cc1", "strain": "NL4-3", "cell line": "MT-2", "result": "2.6 µM"}
{"SMILES": "Cc1ccc(-n2c(SCC(=O)Nc3ccc(S(N)(=O)=O)cc3Cl)nnc2C(F)(F)F)c2ccccc12", "strain": "NL4-3", "mutations": "RT-Y188L", "cell line": "HeLa + HeLa-JC53", "result": "0.025 µM"}
{"SMILES": "COc1cnc(-n2cnc(C)n2)c2[nH]cc(C(=O)C(=O)N3CCC(=C(c4ccccc4)c4nnco4)CC3)c12", "cell line": "HeLa", "result": "<1 µM"}
{"SMILES": "CCCCCC1CN(C(=O)c2ccccc2)CCN1C(=O)C(=O)c1c[nH]c2c(C(=O)OC)cccc12", "cell line": "HeLa + HELA CD4+/CCR5", "result": "<10 µM"}
{"SMILES": "N#CC(=C1CCN(C(=O)C(=O)c2c[nH]c3ccccc23)CC1)c1ccccc1", "cell line": "HeLa", "result": "1–5 µM"}
{"SMILES": "O=C(C(=O)N1CCN(C(=Nc2cccnc2)c2ccccc2)CC1)c1c[nH]c2cccc(F)c12", "strain": "Luciferase reporter virus", "cell line": "HeLa(CD4+) + HeLa", "result": ">0.5 µM"}

A second listing of 4 rows from above:

{"SMILES": "Cc1cc(C)c(Oc2nc(Nc3ccc(C#N)cc3)nc3c(C)csc23)c(C)c1", "strain": "L1001-K103N", "cell line": "HeLa", "result": "0.01–0.1 µM"}
{"SMILES": "CN(C(=O)[C@H](Cc1cc(F)cc(F)c1)NC(=O)NS(=O)(=O)N[C@@H](Cc1cc(F)cc(F)c1)C(=O)N(C)c1ccc(C(F)F)nc1)c1ccc(C(F)F)nc1", "strain": "NL4-3", "cell line": "MT-2", "result": "0.39 µM"}
{"SMILES": "O=C(C(=O)N1CCN(C(=O)c2cc(Br)ccc2S)CC1)c1c[nH]c2cccc(F)c12", "cell line": "HeLa + HELA CD4+/CCR5", "result": "<10 µM"}
{"SMILES": "COc1ccc(-n2ccnc2[C@H](Cc2ccccc2)NC(=O)c2cccc(C(=O)N[C@@H](Cc3ccccc3)c3nccn3-c3ccc(OC)cc3)c2)cc1", "strain": "NL4-3", "cell line": "MT-2", "result": "2.8 µM"}

ECn: concentration that inhibits the pathogen or its effect by n%. Two numbers with a dash give a range or band.